Compound potency records, mixed from different reports. Data source: NIAID ChemDB in PubChem.

All rows: growth or infection tests; agent: Herpes simplex virus 1

ECn: concentration that inhibits the pathogen or its effect by n%. Blank or dashed fields: not listed here. Lines come from different laboratories, so protocols vary.

COc1ccccc1C(=O)Nc1ccc(NC(=S)NCCc2cc3ccccc3o2)cc1 ; read by: ELISA ; cell line: VERO ; read-out: EC50 ; result: >10 µg/mL
Cc1cn([C@@H]2O[C@H](CO)[C@@H](O)[C@@H]2O)c(=O)[nH]c1=O ; strain: VR-3 ; read-out: MIC ; result: 1 µg/mL
CC1=CC(=O)N(c2ccccc2)S(=O)(=O)N1COCCO ; cell line: E6SM ; strain: B206 (TK-) ; read-out: EC50 ; result: >400 µg/mL
O=c1[nH]c(=O)n(C2CC(O[N+](=O)[O-])C(CO)O2)cc1I ; read by: cytopathic effect ; cell line: E6SM ; strain: KOS ACV-R (TK-) ; read-out: EC50 ; result: >400 µg/mL
O=C(NCc1ccc(Cl)cc1)c1c[nH]c2c(F)cc(CCCO)cc2c1=O ; strain: ARAA13 (V813M (III)) ; read-out: EC50 ; result: 0.1 µM
Nc1ncnc2c1ncn2[C@@H]1O[C@H](COP(=O)(O)O)[C@@H](O)[C@H]1O ; read by: cytopathic effect ; cell line: E6SM ; read-out: EC50 ; result: >400 µg/mL
Nc1nc2c(ncn2COCCCP(=O)([O-])O)c(=O)[nH]1 ; cell line: MRC-5 ; read-out: EC50 ; result: 28 µM
CCc1cn([C@@H]2O[C@H](CO)[C@@H](O)[C@@H]2O)c(=O)[nH]c1=O ; strain: WT-34 ; read-out: MIC ; result: 3.2 µg/mL
O=c1[nH]c(=O)n([C@H]2C[C@H](O)[C@@H](CO)O2)cc1I ; read by: cytopathic effect ; cell line: PRK ; strain: KOS ; read-out: EC50 ; result: 0.2 µg/mL
CC(=O)OCCOCN1C(=N)/C(=C(\C)O)C(N)=NS1(=O)=O ; cell line: E6SM ; strain: KOS ; read-out: EC50 ; result: >400 µg/mL
Cc1cn(C2CC(O[N+](=O)[O-])C(CO)O2)c(=O)[nH]c1=O ; read by: cytopathic effect ; cell line: E6SM ; strain: KOS ; read-out: EC50 ; result: >400 µg/mL
CCCCCCCCCCCCCCCCOCCCOP(=O)(O)CCCOCn1cnc2c(=O)[nH]c(N)nc21 ; cell line: MRC-5 ; read-out: EC50 ; result: 1.8 µM
O=c1ccn([C@@H]2O[C@H](CO)[C@@H](O)[C@H]2O)c(=O)[nH]1 ; strain: VR-3 ; read-out: MIC ; result: 100 µg/mL
CC(=O)OCCOCN1C=CC(=O)N(COCCOC(C)=O)S1(=O)=O ; cell line: E6SM ; strain: F ; read-out: EC50 ; result: >400 µg/mL
CCCCCCCC/C=C\CCCCCCCOCCCOP1(=O)CO[C@@H](Cn2ccc(N)nc2=O)CO1 ; read by: plaque count ; cell line: HFF ; strain: HL-3 ; read-out: EC50 ; result: 0.2 µM
Nc1nc2c(ncn2COCCO)c(=O)[nH]1 ; read by: plaque count ; cell line: VERO ; strain: 7401H ; read-out: EC50 ; result: 0.2 µg/mL
NC1=CC(N)=NS(=O)(=O)N1COCCO ; cell line: E6SM ; strain: F ; read-out: EC50 ; result: >400 µg/mL
COc1cc(OC)c(NC(=S)Nc2ccc(NC(=O)c3ccccc3Cl)cc2)cc1Cl ; read by: ELISA ; cell line: VERO ; read-out: EC50 ; result: 0.125 µg/mL
CCc1cn([C@H]2C[C@H](O)[C@@H](CO)O2)c(=O)[nH]c1=O ; strain: WT-34 ; read-out: MIC ; result: 3.2 µg/mL
Nc1ccn(C[C@H]2COP(=O)(O)CO2)c(=O)n1 ; read by: plaque count ; cell line: HFF ; strain: HL-3 ; read-out: EC50 ; result: 33.11 µM
Nc1ncnc2c1ncn2[C@@H]1O[C@H](COP(=O)(O)O[C@@H]2[C@H](O)[C@@H](COP(=O)(O)OP(=O)(O)OC[C@@H]3OC(O)[C@H](O)[C@H](O)[C@H]3O)O[C@H]2n2cnc3c(N)ncnc32)[C@@H](O)[C@H]1O ; read by: cytopathic effect ; cell line: E6SM ; read-out: EC50 ; result: >200 µg/mL
O=c1[nH]c(=O)n([C@H]2C[C@H](O)[C@@H](CO)O2)cc1I ; strain: KET ; read-out: MIC ; result: 1.1 µg/mL
CCCCCCCCCCCCCCCCCOC[C@H](COP1(=O)CO[C@@H](Cn2ccc(N)nc2=O)CO1)OCc1ccccc1 ; read by: plaque count ; cell line: HFF ; strain: F ; read-out: EC50 ; result: 0.8 µM
Nc1nc2c(ncn2CCCCO)c(=O)[nH]1 ; read by: plaque count ; cell line: VERO ; strain: C42 ; read-out: EC50 ; result: 3 µM
O=C(NCc1ccc(Cl)cc1)c1c[nH]c2c(F)cccc2c1=O ; strain: TSD9 (E597 (A)) ; read-out: EC50 ; result: 7.6 µM
CCCCCCCCCCCCCCCCCCOC[C@H](COP(=O)(O)CO[C@H](CO)Cn1ccc(N)nc1=O)OCc1ccccc1 ; read by: plaque count ; cell line: HFF ; strain: E-377 ; read-out: EC50 ; result: 0.04 µM
N#CC1=CN(COCCO)S(=O)(=O)N=C1N ; cell line: E6SM ; strain: McIntyre ; read-out: EC50 ; result: >400 µg/mL
CCCCCCCC/C=C\CCCCCCCCOCCOP(=O)(O)CO[C@H](CO)Cn1ccc(N)nc1=O ; read by: plaque count ; cell line: HFF ; strain: HL-3 ; read-out: EC50 ; result: 0.05 µM
O=c1[nH]c(=O)n([C@H]2CC[C@@H](CO)O2)cc1/C=C/Br ; read by: cytopathic effect ; cell line: PRK ; strain: KOS ; read-out: EC50 ; result: 0.007 µg/mL
CCCCCCCC/C=C\CCCCCCCOCCCOP(=O)(O)CO[C@H](CO)Cn1ccc(N)nc1=O ; read by: plaque count ; cell line: HFF ; strain: E-377 ; read-out: EC50 ; result: 0.02 µM
CCCCCCCC/C=C\CCCCCCCCOCCOP(=O)(O)CCCOCn1cnc2c(=O)[nH]c(N)nc21 ; cell line: MRC-5 ; read-out: EC50 ; result: 0.22 µM
Nc1nc2c(ncn2CC[C@@H](O)CO)c(=O)[nH]1 ; read by: plaque count ; cell line: VERO ; strain: KJ502 ; read-out: EC50 ; result: 7 µM
Nc1nc2c(ncn2COC(CO)CO)c(=O)[nH]1 ; read by: plaque count ; cell line: VERO H ; strain: ICI ; read-out: EC50 ; result: 0.06 µM
CCCCCCCCCCCCCCCCCCOCCOP(=O)(O)CCCOCn1cnc2c(=O)[nH]c(N)nc21 ; cell line: MRC-5 ; read-out: EC50 ; result: 0.048 µM
Nc1ncnc2c1ncn2[C@@H]1O[C@H](COP(=O)(O)O[C@@H]2[C@H](O)[C@@H](COP(=O)(O)O[C@@H]3[C@H](O)[C@@H](COP(=O)(O)OP(=O)(O)OC[C@@H]4OC(O)[C@H](O)[C@H](O)[C@H]4O)O[C@H]3n3cnc4c(N)ncnc43)O[C@H]2n2cnc3c(N)ncnc32)[C@@H](O)[C@H]1O ; read by: cytopathic effect ; cell line: E6SM ; read-out: EC50 ; result: 70 µg/mL

Again, the opening 4 rows:

structure | read by | cell line | strain | read-out | result
COc1ccccc1C(=O)Nc1ccc(NC(=S)NCCc2cc3ccccc3o2)cc1 | ELISA | VERO | - | EC50 | >10 µg/mL
Cc1cn([C@@H]2O[C@H](CO)[C@@H](O)[C@@H]2O)c(=O)[nH]c1=O | - | - | VR-3 | MIC | 1 µg/mL
CC1=CC(=O)N(c2ccccc2)S(=O)(=O)N1COCCO | - | E6SM | B206 (TK-) | EC50 | >400 µg/mL
O=c1[nH]c(=O)n(C2CC(O[N+](=O)[O-])C(CO)O2)cc1I | cytopathic effect | E6SM | KOS ACV-R (TK-) | EC50 | >400 µg/mL